## Mutational tolerance of the Zika virus NS2B-NS3 protease

From the data files of Ni et al. 2025, doi:10.1038/s41467-025-63602-z.

The scanned region of Zika virus MR766 is shown below (positions 1-308): NS2B is 2-131, NS3 begins at position 132.
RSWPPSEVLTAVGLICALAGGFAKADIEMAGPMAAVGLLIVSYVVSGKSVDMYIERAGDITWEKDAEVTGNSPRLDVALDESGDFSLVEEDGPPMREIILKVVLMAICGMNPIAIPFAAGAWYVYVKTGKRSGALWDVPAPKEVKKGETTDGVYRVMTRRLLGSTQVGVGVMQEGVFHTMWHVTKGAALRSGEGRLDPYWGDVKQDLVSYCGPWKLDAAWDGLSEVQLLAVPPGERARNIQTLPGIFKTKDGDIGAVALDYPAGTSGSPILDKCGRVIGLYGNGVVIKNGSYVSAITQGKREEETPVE

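Pools of virus carrying all single amino acid changes were selected for growth in Huh-7.5 cells. The effect is the change in frequency of a mutant, normalised to wild type, as a mean of three replicate libraries (two for positions 207-308). The study looked for pockets that tolerate few changes, as a guide for inhibitor design.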

The number is log2 of the effect relative to wild type; negative values mean reduced growth, higher values better tolerance.
Each entry names the wild-type residue, its position and the residue put in its place.
This list holds changes to methionine only.

change,log2 growth effect
V203M,-5.68
K204M,-5.76
Q205M,-3.89
D206M,-5.64
L207M,-7.04
V208M,-2.30
S209M,-6.25
Y210M,-6.84
C211M,-0.53
G212M,-6.84
P213M,-3.11
W214M,-7.74
K215M,-2.61
L216M,-0.28
D217M,-5.08
A218M,-6.21
A219M,1.64
W220M,-6.21
D221M,-5.22
G222M,1.16
L223M,-0.39
S224M,-5.63
E225M,-6.07
V226M,-5.39
Q227M,-6.38
L228M,-2.81
L229M,-0.14
A230M,-4.24
V231M,-3.20
P232M,-1.05
P233M,-5.01
G234M,-4.88
E235M,-3.68
R236M,0.77
A237M,-0.92
R238M,0.96
N239M,-5.48
I240M,-1.55
Q241M,-4.82
T242M,-5.88
L243M,-1.72
P244M,-4.33
G245M,-5.47
I246M,-5.05
F247M,-5.33
K248M,-0.05
T249M,1.17
K250M,-3.11
D251M,-4.98
G252M,-2.73
D253M,-3.97
I254M,-3.57
G255M,-6.24
A256M,-5.75
V257M,-4.15
A258M,-5.13
L259M,-5.62
D260M,-4.27
Y261M,-0.66
P262M,-4.68
A263M,-3.37
G264M,-5.19
T265M,-4.34
S266M,-4.85
G267M,-4.84
S268M,-4.08
P269M,-4.33
I270M,-4.75
L271M,-1.52
D272M,-3.61
K273M,-2.47
C274M,1.16
G275M,-4.40
R276M,-3.26
V277M,-3.79
I278M,-5.19
G279M,-4.30

Values above 0 are not proof of better growth: six high scorers were tested one by one, five grew less well than wild type and one about as well.
The region was split into three libraries (1-103, 104-206, 207-308).
Position 1 still belongs to NS2A. In the paper, -1 or higher counts as tolerated.